# Measurements reported in paper PMC5519681, “Differential control of dNTP biosynthesis and genome integrity maintenance by the dUTPase superfamily enzymes” (Scientific Reports, 2017).
# How the values were obtained:
# [1] = test system: Nc1ccn([C@H]2C[C@H](O)[C@@H](COP(=O)(O)OP(=O)(O)OP(=O)(O)O)O2)c(=O)n1; experiment: purified protein; details: pH 7.5; 20.0 °C
# [2] = test system: O=c1ccn([C@H]2C[C@H](O)[C@@H](COP(=O)(O)OP(=O)(O)OP(=O)(O)O)O2)c(=O)[nH]1; experiment: purified protein; details: pH 7.5; 20.0 °C
substance,measurement,setting,value
(Mycobacterium tuberculosis H37Rv),Km,[1],20 ± 12 µM
same,kcat/Km,[1],1100 M⁻¹ s⁻¹
same,Km,[2],12 ± 3 µM
